Measured values from several laboratories, pooled; numbers as filed in NIAID ChemDB.

Shared fields: enzyme or target tests; species: HIV-1; protein: Integrase

An empty or dashed field is not shown.

O=C(O)C(=O)/C=C(\O)c1cn(-c2ccccc2F)c(=O)n(-c2ccccc2F)c1=O ; read-out: IC50 ; method: 3′ processing ; result: 4.1 µM
Cc1csc2nc(C(=O)NCc3ccc(Cl)c(Cl)c3)c(O)c(=O)n12 ; read-out: IC50 ; method: strand transfer ; result: 0.001–1 µM
COc1ccc(/C=C2\C(=O)N(c3cccc(F)c3)NC2C(F)(F)F)cc1OCc1ccc(F)cc1 ; read-out: IC50 ; method: 3′ processing ; result: >100 µM
O=c1ccn2c(CO)cn(Cc3cccc(Cl)c3)c(=O)c2c1O ; read-out: IC50 ; method: ELISA ; result: 0.01–0.1 µM
Cc1cn([C@H]2C[C@H](O)[C@@H](COP(=O)(O)O[C@H]3[C@H](n4cnc5c(N)ncnc54)CO[C@@H]3COP(=O)(O)O)O2)c(=O)nc1N ; read-out: IC50 ; method: 3′ processing ; result: 60 µM
CS(=O)(=O)CCNC(=O)c1cn2ccn(Cc3cccc(Cl)c3)c(=O)c2c(O)c1=O ; read-out: IC50 ; method: ELISA ; result: 0.01–0.1 µM
Cc1cn2c(=O)c(O)c(-c3ncc(Cc4ccc(F)cc4)s3)nc2s1 ; read-out: IC50 ; method: strand transfer ; changes: E92Q/N155H ; result: 0.001–1 µM
O=C(/C=C/c1ccc(O)c(O)c1)OCCc1ccccc1N=C=S ; read-out: IC50 ; method: 3′ processing ; changes: C56S ; result: 23 µM
O=C1/C(=C/c2ccc(Cl)c(Cl)c2)CSC/C1=C\c1ccc(Cl)c(Cl)c1 ; read-out: IC50 ; method: strand transfer ; result: >100 µM
N#Cc1c(-c2ccccc2)nc(SCCc2ccccc2)[nH]c1=O ; read-out: IC50 ; method: strand transfer ; result: 100 µM
CCN(CC)CCCC(C)Nc1cncc2cc(OC)ccc12 ; read-out: IC50 ; method: 3′ processing ; result: >300 µM
Cc1cn2c(=O)c(O)c(-c3ncc(Cc4ccc(F)c(Cl)c4)s3)nc2s1 ; read-out: IC50 ; method: strand transfer ; result: 0.001–1 µM
O=C(/C=C/c1ccc(O)c(O)c1)Oc1ccc2cccc(N=C=S)c2c1 ; read-out: IC50 ; method: 3′ processing ; changes: C56S ; result: 11 µM
O=C(O)C(=O)/C=C(\O)c1cn(-c2ccc(F)cc2)c(=O)n(-c2ccc(F)cc2)c1=O ; read-out: IC50 ; method: 3′ processing ; result: 3.9 µM
O=C(/C=C/c1ccccc1)OCCc1ccc(N=C=S)cc1 ; read-out: IC50 ; method: 3′ processing ; changes: C65S ; result: >100 µM
Cc1cn2c(=O)c(O)c(-c3ncc(Cc4ccc(Cl)c(Cl)c4)s3)nc2s1 ; read-out: IC50 ; method: strand transfer ; changes: E92Q/N155H ; result: 1–10 µM
Cc1nn(Cc2cccc(Cl)c2)c(=O)c2c(O)c(=O)ccn12 ; read-out: IC50 ; method: ELISA ; result: 0.01–0.1 µM
N#Cc1c(-c2cccc([N+](=O)[O-])c2)nc(SCc2ccc([N+](=O)[O-])cc2)[nH]c1=O ; read-out: IC50 ; method: strand transfer ; result: 100 µM
CCN(CC)CCCC(C)Nc1ccnc2cc(C(F)(F)F)ccc12 ; read-out: IC50 ; method: 3′ processing ; result: >300 µM
O=C(NCCO)c1c(O)c2ncc(Cc3ccc(F)cc3)cc2n(-c2ccc(F)cc2)c1=O ; read-out: IC50 ; method: strand transfer ; result: 0.006 µM
O=C1/C(=C/c2cc(O)c(O)c(O)c2)CNC/C1=C\c1cc(O)c(O)c(O)c1 ; read-out: IC50 ; method: 3′ processing ; result: 0.3 µM
CC1(C)CC(=O)c2c(nc(-c3coc4cc(OCc5ccccc5F)ccc4c3=O)n2O)C1 ; read-out: IC50 ; method: 3′ processing / radiometric ; result: >1000 µM
COc1ccc(/C=C2\C(=O)N(c3cccc(C)c3)NC2C(F)(F)F)cc1OCc1ccc(F)cc1 ; read-out: IC50 ; method: 3′ processing ; result: >100 µM
CC(C)n1c(=O)c(O)c2n(c1=O)CCN(Cc1ccc3ccccc3c1)C2=O ; read-out: IC50 ; method: strand transfer ; result: <10 µM
O=C(/C=C/c1ccc(O)c(O)c1)Oc1cccc2c(N=C=S)cccc12 ; read-out: IC50 ; method: 3′ processing ; result: 2 µM
CN1CC(O)C(C)(C)Cn2c(c3cnn(Cc4ccc(F)cc4)c(=O)c3c(O)c2=O)C1=O ; read-out: IC50 ; method: strand transfer ; result: 0.006 µM
Cc1cn([C@H]2C[C@H](O)[C@@H](COP(=O)(O)O[C@H]3[C@H](n4cnc5c(N)ncnc54)CO[C@@H]3COP(=O)(O)O)O2)c(=O)[nH]c1=O ; read-out: IC50 ; method: strand transfer ; result: 150 µM
CC(=O)N1CCC(n2c(=O)c(O)c3n(c2=O)CCN(Cc2ccc(F)cc2)C3=O)CC1 ; read-out: IC50 ; method: strand transfer ; result: <10 µM
CCOC(=O)CC1C/C(=C\c2cc(O)c(O)c(O)c2)C(=O)/C(=C/c2cc(O)c(O)c(O)c2)C1 ; read-out: IC50 ; method: disintegration ; result: 1.6 µM
COC(=O)N1CCC2(CC1)OCCCn1c2nc(C(=O)NCc2ccc(F)cc2)c(O)c1=O ; read-out: Ki ; method: binding / radiometric ; result: 0.001–0.003 µM
O=C1CCN(C(=O)c2cn3ccn(Cc4cccc(Cl)c4)c(=O)c3c(O)c2=O)C1 ; read-out: IC50 ; method: ELISA ; result: 0.01–0.1 µM
CCO/C(CC(=O)NCc1ccc(Cl)cc1)=N\Nc1ccccc1[N+](=O)[O-] ; read-out: IC50 ; method: strand transfer ; result: >250 µM
Cc1ncnn1-c1cc(F)ccc1CNC(=O)c1nc2n(c(=O)c1O)CCCOC21CCN(C(=O)N(C)C)CC1 ; read-out: Ki ; method: binding / radiometric ; result: 0.003–0.05 µM
CC1=CC2CC[C@@H](O)[C@H](C)C2[C@@H](/C(O)=C2/C(=O)NC(O)C2=O)[C@@H]1C[C@H]1OC2(CC[C@H](C)[C@@H](c3cc(O)cc(O)c3)O2)[C@@H](C)C[C@@H]1C ; read-out: IC50 ; method: strand transfer ; result: 4 µM
Nc1cn2ccn(Cc3cccc(Cl)c3)c(=O)c2c(O)c1=O ; read-out: IC50 ; method: ELISA ; result: 0.01–0.1 µM
CCOC(=O)c1c(C)nc(-c2coc3cc(OCc4ccccc4F)ccc3c2=O)n1O ; read-out: IC50 ; method: 3′ processing / radiometric ; result: 250 µM
CCOC(=O)C1C/C(=C\c2cc(O)c(O)c(O)c2)C(=O)/C(=C/c2cc(O)c(O)c(O)c2)C1 ; read-out: IC50 ; method: strand transfer ; result: 0.3 µM
O=C(NCc1ccccn1)c1cn2c(c(O)c1=O)C(=O)N(Cc1cccc(Cl)c1)CC2 ; read-out: IC50 ; method: ELISA ; result: 0.01–0.1 µM
COc1cc(NC(C)CCCN)c2ncccc2c1 ; read-out: IC50 ; method: strand transfer ; result: 11.1 µM
C=c1/c(=C\c2ccc(OC)c(OCc3ccc(F)cc3)c2)c(CCOC(C)=O)nn1-c1ccccc1 ; read-out: IC50 ; method: strand transfer ; result: 100 µM
O=C(O)CC1C/C(=C\c2cc(O)c(O)c(O)c2)C(=O)/C(=C/c2cc(O)c(O)c(O)c2)C1 ; read-out: IC50 ; method: 3′ processing ; result: 0.2 µM
CCOC(=O)c1c(C)nc(-c2coc3cc(OCc4cccc(F)c4)ccc3c2=O)n1O ; read-out: IC20 ; method: 3′ processing / radiometric ; result: 50 µM
CCN(CC)CCCC(C)Nc1ccnc2c(OC)c(Cl)ccc12 ; read-out: IC50 ; method: strand transfer ; result: >300 µM
CC(C)(C)C(=O)c1cn2ccn(Cc3cccc(F)c3)c(=O)c2c(O)c1=O ; read-out: IC50 ; method: ELISA ; result: 0.01–0.1 µM
O=C(O[C@@H]1O[C@@H]2COC(=O)c3cc(O)c(O)c(O)c3-c3c(cc(O)c(O)c3O)C(=O)O[C@H]([C@H]1O)[C@@H]2O)c1cc(O)c(O)c(O)c1 ; read-out: IC50 ; method: strand transfer ; result: 0.21 µg/mL
CCO/C(CC(=O)NCc1ccc(F)cc1)=N\Nc1ccccc1[N+](=O)[O-] ; read-out: IC50 ; method: strand transfer ; result: >250 µM
CC(C)c1cn2c(=O)c(O)c(C(=O)NCc3ccc(Cl)c(Cl)c3)nc2s1 ; read-out: IC50 ; method: strand transfer ; result: 0.001–1 µM
O=C1c2c(O)c(=O)n(N3CCCCCC3)c(=O)n2CCN1Cc1ccc(F)cc1 ; read-out: IC50 ; method: strand transfer ; result: <10 µM
CCO/C(CC(=O)NCc1ccc(Br)cc1)=N\Nc1ccccc1[N+](=O)[O-] ; read-out: IC50 ; method: strand transfer ; result: >250 µM
CN(C)S(=O)(=O)N1CCC2(CC1)COCCn1c2nc(C(=O)NCc2ccc(F)cc2)c(O)c1=O ; read-out: Ki ; method: binding / radiometric ; result: 0.003–0.05 µM
O=C(/C=C/c1ccc(Cl)c(Cl)c1)/C=C/c1ccc(Cl)c(Cl)c1 ; read-out: IC50 ; method: strand transfer ; result: >100 µM
CC(C)c1cn(Cc2ccc(F)c(Cl)c2)c(=O)c2c(O)c(=O)ccn12 ; read-out: IC50 ; method: ELISA ; result: <0.01 µM
CN(C)CCCn1cc(C(=O)O)c(=O)c2ccc(Nc3nc(-c4cc(-c5ccccc5)no4)cs3)cc21 ; read-out: IC50 ; method: 3′ processing ; result: 0.297 µM
N#Cc1c(-c2ccc(Cl)cc2)nc(SCCc2ccccc2)[nH]c1=O ; read-out: IC50 ; method: strand transfer ; result: 16 µM
COc1ccc(/C=C/C(=O)OCCc2ccc(N=C=S)cc2)cc1OC ; read-out: IC50 ; method: 3′ processing ; result: >100 µM
N#Cc1c(-c2cccc([N+](=O)[O-])c2)nc(SCc2ccccc2)[nH]c1=O ; read-out: IC50 ; method: strand transfer ; result: 87 µM
CCN(CC)CCCC(C)Nc1ccnc2cc(OC)ccc12 ; read-out: IC50 ; method: 3′ processing ; result: >300 µM
O=C(NCc1ccc(F)cc1N1CCCCS1(=O)=O)c1nc2n(c(=O)c1O)CCCOC21CCN(C(=O)OCc2ccccc2)CC1 ; read-out: Ki ; method: binding / radiometric ; result: 0.003–0.05 µM
CCCCCCCCCCCCCCCC(=O)NC1C(COP(=O)(O)OC2CC(COP(=O)(O)OC3C(O)C(CO)OC3n3cnc4c(N)ncnc43)OC2n2cnc3c(N)ncnc32)OC(n2cnc3c(N)ncnc32)C1O ; read-out: IC50 ; result: >1000 µM
O=C(O)C(=O)/C=C(\O)c1cn(-c2ccc(C(F)(F)F)cc2)c(=O)n(-c2ccc(C(F)(F)F)cc2)c1=O ; read-out: IC50 ; method: 3′ processing ; result: >33 µM
OC1/C(=C/c2ccc(Cl)c(Cl)c2)CSC/C1=C\c1ccc(Cl)c(Cl)c1 ; read-out: IC50 ; method: strand transfer ; result: >100 µM
C=C(C=O)[C@@H]1C[C@@]2(C)C(=CC1=O)[C@H](OC(=O)/C(C)=C\C(C)CCCC)CC[C@@H]2C(=O)O ; read-out: IC50 ; method: 3′ processing ; result: 10 µM

Repeating the final 9 entries:

structure,read-out,method,changes,result
N#Cc1c(-c2ccc(Cl)cc2)nc(SCCc2ccccc2)[nH]c1=O,IC50,strand transfer,-,16 µM
COc1ccc(/C=C/C(=O)OCCc2ccc(N=C=S)cc2)cc1OC,IC50,3′ processing,-,>100 µM
N#Cc1c(-c2cccc([N+](=O)[O-])c2)nc(SCc2ccccc2)[nH]c1=O,IC50,strand transfer,-,87 µM
CCN(CC)CCCC(C)Nc1ccnc2cc(OC)ccc12,IC50,3′ processing,-,>300 µM
O=C(NCc1ccc(F)cc1N1CCCCS1(=O)=O)c1nc2n(c(=O)c1O)CCCOC21CCN(C(=O)OCc2ccccc2)CC1,Ki,binding / radiometric,-,0.003–0.05 µM
CCCCCCCCCCCCCCCC(=O)NC1C(COP(=O)(O)OC2CC(COP(=O)(O)OC3C(O)C(CO)OC3n3cnc4c(N)ncnc43)OC2n2cnc3c(N)ncnc32)OC(n2cnc3c(N)ncnc32)C1O,IC50,-,-,>1000 µM
O=C(O)C(=O)/C=C(\O)c1cn(-c2ccc(C(F)(F)F)cc2)c(=O)n(-c2ccc(C(F)(F)F)cc2)c1=O,IC50,3′ processing,-,>33 µM
OC1/C(=C/c2ccc(Cl)c(Cl)c2)CSC/C1=C\c1ccc(Cl)c(Cl)c1,IC50,strand transfer,-,>100 µM
C=C(C=O)[C@@H]1C[C@@]2(C)C(=CC1=O)[C@H](OC(=O)/C(C)=C\C(C)CCCC)CC[C@@H]2C(=O)O,IC50,3′ processing,-,10 µM

Conditions beyond the fields shown may differ between rows. a–b is a range or a potency band. ICn is the concentration giving n% inhibition.